Compound potency records, mixed from different reports. Data source: NIAID ChemDB in PubChem.

Shared fields: target-level tests; organism: Hepatitis C virus; target: NS5B polymerase

An empty or dashed field is not shown.

smiles	read-out	tested at	strain	read by	value
Cn1cccc1-c1nc2cc(C(=O)NC3(C(=O)Nc4ccc(/C=C/C(=O)O)cc4)CCCC3)ccc2n1C1CCCC1	IC50				0.5–5 µM
Cc1cccc(Oc2cccc(-c3nc4cc(C(=O)N[C@H](C(=O)O)c5c[nH]c6ccc(O)cc56)ccc4n3C3CCCCC3)c2)c1	IC50				1–5 µM
Cc1cc(=O)oc2cc(NC(=O)[C@@H](C)NC(=O)c3ccc4c(c3)nc(-c3ccoc3)n4C3CCCCC3)ccc12	IC50				0.5–5 µM
COc1ccc(-c2ccc(C(N)=O)cc2)c(-c2ccc3cc(-c4nc5cc(C(=O)O)ccc5n4C4CCCCC4)ccc3n2)c1	inhibition	33 µM			101%
Cc1cc(NS(=O)(=O)c2cc(Cl)c(Cl)cc2Cl)no1	IC50			nucleotide incorporation	100 µM
CCSc1nc(N2CCN(C(=O)c3ccccc3)CC2)cc(N(C)c2ccc(N(C)Cc3ccccc3)cc2)n1	inhibition	0.1 µg/mL			30–55%
O=C(N[C@H](C(=O)O)c1c[nH]c2ccc(O)cc12)c1ccc2c(c1)nc(-c1cnccn1)n2C1CCCCC1	IC50				<1 µM
O=C(NC(Cc1c[nH]c2ccc(O)cc12)C(=O)O)c1ccc2c(c1)nc(-c1ccoc1)n2C1CCCCC1	Ki				0.15 µM
Cc1cc(-c2nc3cc(C(=O)N[C@H](C(=O)O)c4c[nH]c5ccc(O)cc45)ccc3n2C2CCCCC2)nn1C	IC50				5–10 µM
CCC[C@]1(CC(=O)O)OCCc2c1[nH]c1c(C)ccc(C#N)c21	IC50		320-10-3 genotype 1B		0.5 µM
O=C(O)COc1ccc2[nH]cc(C[C@H](NC(=O)c3ccc4c(c3)nc(-c3ccoc3)n4C3CCCCC3)C(=O)O)c2c1	IC50				<1 µM
O=C(O)c1ccc2c(c1)nc(-c1ccc3nc(-c4cccc5ccccc45)ccc3c1)n2C1CCCCC1	inhibition	100 µM			101%
O=C(O)/C=C/c1ccc(NC(=O)C2(NC(=O)c3ccc4c(c3)nc(-c3ccco3)n4C3C[C@H]4CC[C@@H]3C4)CCCC2)cc1	IC50				<0.5 µM
CCSc1nc(Nc2ccc(N(CC)CC)cc2)cc(N2CCN(C(=O)c3ccccc3)CC2)n1	inhibition	0.1 µg/mL			30–55%
O=C(N[C@H](C(=O)O)c1c[nH]c2ccc(O)cc12)c1ccc2c(c1)nc(-c1ccccc1OCCO)n2C1CCCCC1	IC50				1–5 µM
CCc1nc(N2CCN(C(=O)c3ccccc3)CC2)cc(N(C)c2ccc(N(C)Cc3ccccc3)cc2)n1	inhibition	0.1 µg/mL			30–55%
COc1ccc(CC(NC(=O)c2ccc3c(c2)nc(-c2cccs2)n3C2CCCCC2)C(=O)O)cc1OC	IC50				<1 µM
CCSc1nc(Nc2ccc(N(CC)CC)cc2)cc(N2CCN(C(=O)c3ccncc3)CC2)n1	inhibition	0.1 µg/mL			30–55%
O=C(O)c1ccc2c(c1)nc(-c1ccc3nc(-c4cc(O)ccc4-c4ccccc4)ccc3c1)n2C1CCCCC1	inhibition	100 µM			101%
O=C(O)/C=C/c1ccc(NC(=O)[C@H](Cc2ccc(-c3ccccc3)cc2)NC(=O)c2ccc3c(c2)nc(-c2ccoc2)n3C2CCCCC2)cc1	IC50				5–25 µM
O=C(O)COc1ccc(CC[C@H](NC(=O)c2ccc3c(c2)nc(-c2ccoc2)n3C2CCCCC2)C(=O)O)cc1	IC50				<1 µM
O=C(O)/C=C/c1ccc(NC(=O)C2(NC(=O)c3ccc4c(c3)nc(-c3ccco3)n4C3CCC3)CCCC2)cc1	IC50				0.5–5 µM
O=C(O)c1ccc(Cl)cc1NS(=O)(=O)c1cc(Cl)c(Cl)cc1Cl	IC50			nucleotide incorporation	11 µM
Cc1cccc(-c2nc3cc(C(=O)N[C@H](C(=O)O)c4c[nH]c5ccc(O)cc45)ccc3n2C2CCCCC2)n1	IC50				5–10 µM
Cc1cc(NC(=O)C2(NC(=O)c3ccc4c(c3)nc(-c3ccoc3)n4C3CCCCC3)CCCC2)ccc1/C=C/C(=O)O	IC50				<0.5 µM
NCCCCC(NC(=O)c1ccc2c(c1)nc(-c1ccc3nc(-c4ccccc4)ccc3c1)n2C1CCCCC1)C(=O)O	inhibition	100 µM			80.22%
O=C(O)/C=C/c1ccc(NC(=O)C2(NC(=O)c3ccc4c(c3)nc(-c3cccs3)n4C3CCCCC3)CCCC2)cc1	IC50				<0.5 µM
CN(C(=O)Cc1ccc2c(c1)nc(-c1ccoc1)n2C1CCCCC1)[C@H](Cc1c[nH]c2ccccc12)C(=O)O	IC50				1–5 µM
COCc1cc(=O)oc2cc(NC(=O)C3(NC(=O)c4ccc5c(c4)nc(-c4ccoc4)n5C4CCCCC4)CCCC3)ccc12	IC50				0.5–5 µM
COC(=O)C(NC(=O)c1ccc2c(c1)nc(-c1ccco1)n2C1CCCCC1)c1ccc(OC)c(OC)c1	IC50				1–5 µM

2 of the rows above, restated:

smiles,read-out,tested at,strain,read by,value
CCc1nc(N2CCN(C(=O)c3ccccc3)CC2)cc(N(C)c2ccc(N(C)Cc3ccccc3)cc2)n1,inhibition,0.1 µg/mL,,,30–55%
O=C(O)c1ccc2c(c1)nc(-c1ccc3nc(-c4cc(O)ccc4-c4ccccc4)ccc3c1)n2C1CCCCC1,inhibition,100 µM,,,101%

Two numbers with a dash give a range or band. Neighbouring rows are from separate reports. Percent inhibition refers to the dose given; in toxicity tests it is the harm to the cells. ICn: concentration for n% inhibition.